What all share (experiment): SPR
The target in test [1] is pig ACE2 ectodomain fused with mFc (pig (Sus scrofa)).
The target of test [2] is rabbit ACE2 ectodomain fused with mFc (rabbit (Oryctolagus cuniculus)).
The target in test [3] is Chinese hamster ACE2 ectodomain fused with mFc (Chinese hamster (Cricetulus griseus)).
For test [4], the target named is cat ACE2 ectodomain fused with mFc (cat (Felis catus)) (UniProt Q56H28).
Test [5] deals with horse ACE2 ectodomain fused with mFc (horse (Equus caballus)).
Test [6] has as its target fox ACE2 ectodomain fused with mFc (fox (Vulpes vulpes)).
Test [7] addresses bovine ACE2 ectodomain fused with mFc (bovine (Bos taurus)) (UniProt Q58DD0).
The target of test [8] is sheep ACE2 ectodomain fused with mFc (sheep (Ovis aries)).
Test [9] addresses golden hamster ACE2 ectodomain fused with mFc (golden hamster (Mesocricetus auratus)).
In test [10] the target is minke whale ACE2 ectodomain fused with mFc (minke whale (Balaenoptera acutorostrata scammoni)).
Test [11] concerns the target civet ACE2 ectodomain fused with mFc (civet (Paguma larvata)) (UniProt Q56NL1).

The text below walks through data of PMC12363175.

pKd: −log10 of the molar value.

As to BANAL-20-52-RBD (domain or fragment), the pKd in test [1], in test [2], in test [3], in [4], in [5] and in test [6] was above 7.00 throughout. Moreover, the pKd in [7], in [8], in test [9] and in test [10] was above 7.00 throughout.
Take CX1-RBD (domain or fragment): the negative-log Kd (pKd) in [1] was above 8.30; in [2], above 8.30; in test [11], 5.26.

What is called pKd is −log10 of the Kd, conventionally taken in molar units.
